Compound potency records, mixed from different reports. Data source: NIAID ChemDB in PubChem.

All rows: tests on isolated targets

a–b is a range or a potency band.

smiles	changes	read by	organism	endpoint	strain or isolate	tested at	target	result
O=C(CSc1nnnn1-c1ccc(C2CC2)cc1Cl)Nc1ccc(C(=O)NCCc2cc[n+]([O-])cc2)cc1Cl	RT-K103 Y181C	PicoGreen / fluorescence	HIV-1	IC50			Reverse transcriptase	<1 µM
O=C1c2c(O)c(=O)c(-c3nccs3)cn2CCN1Cc1ccc(F)c(F)c1		ELISA	HIV-1	IC50			Integrase	0.01–0.1 µM
CS(=O)(=O)N1CCc2nc(C(=O)NCc3ccc(F)cc3)c(O)c(=O)n2CC1		ELISA	HIV-1	IC50			Integrase	<10 µM
CC(C)(C#Cc1ccc(NC(=O)CSc2nnnn2-c2ccc(C(C)(C)C)cc2Cl)c(Cl)c1)OCC(=O)NNC(N)=O	RT-K103 Y181C	PicoGreen / fluorescence	HIV-1	IC50			Reverse transcriptase	<1 µM
CN(CC1c2nc(C(=O)NCc3ccc(F)cc3)c(O)c(=O)n2CCN1C)C(=O)CS(C)(=O)=O		ELISA	HIV-1	IC50			Integrase	<10 µM
Cc1cn([C@H]2CC[C@@H](COP(=O)(O)OP(=O)(O)OP(=O)(O)OP(=O)(O)OC[C@@H]3CC[C@H](n4cc(C)c(=O)[nH]c4=O)O3)O2)c(=O)[nH]c1=O	RT-D67N K70R T215Y K219Q	nucleotide incorporation / radiometric	HIV	fold resistance			Reverse transcriptase	0.107
CC(C)[C@H](NC(=O)[C@@H]1CCCN1C(=O)[C@@H](O)[C@H](Cc1ccccc1)NC(=O)OC(C)(C)C)C(=O)NCC1CCCCC1			HIV-1	inhibition		1000 µM	Protease	76.6%
O=c1ccn2c(CCO)cn(Cc3ccc(Cl)c(Cl)c3)c(=O)c2c1O		ELISA	HIV-1	IC50			Integrase	0.01–0.1 µM
CC(C)(C)NC(=O)[C@@H]1CSCN1C(=O)[C@@H](O)[C@H](Cc1ccccc1)NC(=O)[C@@H](NC(=O)COc1cccc2ccccc12)c1ccccc1			HIV-1	inhibition		0.05 µM	Protease	45.2%
Nc1nc2c(ncn2[C@H]2CC[C@@H](COP(=O)(O)OP(=O)(O)OP(=O)(O)OP(=O)(O)OC[C@@H]3CC[C@H](n4cnc5c(=O)[nH]c(N)nc54)O3)O2)c(=O)[nH]1	RT-K65R	nucleotide incorporation / radiometric	HIV	fold resistance			Reverse transcriptase	5.26
CC(=O)N(C)C1CN(C)CCn2c1nc(C(=O)NCc1ccc(F)cc1)c(O)c2=O		ELISA	HIV-1	IC50			Integrase	<10 µM
CC(C)(C#Cc1ccc(NC(=O)CSc2nnnn2-c2cc(C(C)(C)C)cc(Br)c2Cl)c(Cl)c1)NC(=O)c1cc[n+]([O-])cc1		PicoGreen / fluorescence	HIV-1	IC50	WT		Reverse transcriptase	<1 µM
CC(C)(C)NC(=O)[C@@H]1CCCN1C(=O)[C@@H](O)[C@H](Cc1ccccc1)NC(=O)[C@H](CS(N)(=O)=O)NC(=O)COc1cccc2ccccc12			HIV-1	inhibition		0.05 µM	Protease	29.5%
O=c1ccn2ccn(Cc3ccc(Cl)cc3O)c(=O)c2c1O		ELISA	HIV-1	IC50			Integrase	0.01–0.1 µM
CCCC[C@H](NC(=O)[C@H](C)NC(=O)[C@H](CCC(=O)O)NC[C@H](Cc1ccccc1)NC(=O)[C@H](CC(C)C)NC(=O)[C@@H](NC(=O)[C@@H](N)CCCN=C(N)N)C(C)C)C(N)=O	PR-M46L	HPLC	HIV	IC50			Protease	<0.075 µM
CC(=O)N1CCn2c(nc(C(=O)NCc3ccc(F)cc3)c(O)c2=O)C1CO		ELISA	HIV-1	IC50			Integrase	<10 µM
CC(=O)c1ccc(O)c2nc(/C=C/c3cc(O)c(O)c([N+](=O)[O-])c3)ccc12		3′ processing / gel	HIV	IC50	HXB2		Integrase	0.225 µM
CC(C)[C@H](NC(=O)[C@@H]1CCCN1C(=O)[C@H](O)[C@H](Cc1ccccc1)NC(=O)OC(C)(C)C)C(=O)OC1CCCCC1			HIV-1	inhibition		1000 µM	Protease	11.7%
O=C1c2c(O)c(=O)c(-c3nccs3)cn2CCN1Cc1ccccc1Cl		ELISA	HIV-1	IC50			Integrase	0.1–1 µM
CC[C@@H](C)[C@H](NC(=O)[C@H](CCC(N)=O)NC(=O)[C@@H]1CCCN1C(=O)[C@@H](O)[C@H](Cc1ccccc1)NC(=O)[C@H](CC(N)=O)NC(=O)CCc1ccccc1)C(N)=O			HIV-1	inhibition		5 µM	Protease	38%
CC(C)(C#Cc1ccc(NC(=O)CSc2nnnn2-c2cc(C3CC3)ccc2Cl)c(Cl)c1)C(=O)O		PicoGreen / fluorescence	HIV-1	IC50	WT		Reverse transcriptase	<1 µM
Cc1ccc(CNC(=O)c2nc3n(c(=O)c2O)CCNCC3N(C)C(=O)C(=O)N(C)C)cc1Cl		ELISA	HIV-1	IC50			Integrase	<10 µM
O=C(CSc1nnnn1-c1ccc(C2CC2)cc1Cl)Nc1ccc(C#CC2(CO)CC2)cc1Cl		PicoGreen / fluorescence	HIV-1	IC50	WT		Reverse transcriptase	<1 µM
Cc1nnc(CN2CCn3c(nc(C(=O)NCc4ccc(F)cc4)c(O)c3=O)C2(C)C)o1		ELISA	HIV-1	IC50			Integrase	<10 µM
CC(C)(C#Cc1ccc(NC(=O)CSc2nnnn2-c2cc(C(F)(F)F)ccc2Cl)c(Cl)c1F)C(=O)O		PicoGreen / fluorescence	HIV-1	IC50	WT		Reverse transcriptase	<1 µM
CC(C)=CCN1Cc2cccc3[nH]c(=S)n(c23)C[C@@H]1C	RT-W266S	nucleotide incorporation	HIV	fold resistance			Reverse transcriptase	>296
Cc1cn([C@H]2CC[C@@H](COP(=O)(O)OP(=O)(O)OP(=O)(O)O)O2)c(=O)[nH]c1=O	RT-T215Y		HIV	Ki			Reverse transcriptase	0.21 µM
Nc1ncnc2c1ccn2[C@H]1C[C@H](F)[C@@H](COP(=O)(O)OP(=O)(O)OP(=O)(O)O)O1	RT-W88G	nucleotide incorporation / radiometric	HIV	fold resistance			Reverse transcriptase	2.8
CC(C)(C)c1ccc(-n2nnnc2SCC(=O)Nc2ccc(-c3ccc(S(C)(=O)=O)cc3)cc2Cl)c(Cl)c1	RT-K103 Y181C	PicoGreen / fluorescence	HIV-1	IC50			Reverse transcriptase	<1 µM
O=c1c(-c2ccc(O)cc2)cn2ccn(Cc3cccc(Cl)c3)c(=O)c2c1O		ELISA	HIV-1	IC50			Integrase	0.01–0.1 µM
O=C(O)Cc1ccc(-c2ccc(NC(=O)CSc3nnnn3-c3cc4c(cc3Cl)CCC4)c(Cl)c2)cc1		PicoGreen / fluorescence	HIV-1	IC50	WT		Reverse transcriptase	<1 µM
Cn1ncnc1-c1cn2ccn(Cc3ccc(F)c(Cl)c3)c(=O)c2c(O)c1=O		ELISA	HIV-1	IC50			Integrase	<0.01 µM
CN(C)CCN1CCn2c(nc(C(=O)NCc3ccc(F)cc3)c(O)c2=O)C1(C)C		ELISA	HIV-1	IC50			Integrase	<10 µM
CC(=O)C[C@H](NC(=O)COc1cccc2ccccc12)C(=O)N[C@@H](Cc1ccccc1)[C@H](O)C(=O)N1CSC[C@H]1C(=O)NC(C)(C)C			HIV-1	IC50			Protease	>0.05 µM
Cc1ccc(Cl)cc1Nc1nc(C(F)(F)F)ccc1C(=O)NN1CCN(c2cccc(Cl)c2)CC1	Q475A	RNase H / absorbance	HIV-1	IC50			RNase H	>100 µM
COc1ccc(-c2ccc(NC(=O)CSc3nnnn3-c3ccc(C)cc3Cl)c(Cl)c2)cc1		PicoGreen / fluorescence	HIV-1	IC50	WT		Reverse transcriptase	<1 µM
CNC(=O)c1cn2c(CO)cn(Cc3ccc(F)c(Cl)c3)c(=O)c2c(O)c1=O		ELISA	HIV-1	IC50			Integrase	<0.01 µM
Cc1cc(C)c(-n2nnnc2SCC(=O)Nc2ccc(-c3ccc(CC(=O)O)cc3)cc2Cl)c(Cl)c1	RT-K103 Y181C	PicoGreen / fluorescence	HIV-1	IC50			Reverse transcriptase	<1 µM
CC(=O)c1ccc(O)c2nc(/C=C/c3cc(O)c(O)c(O)c3)ccc12		3′ processing / gel	HIV	IC50	HXB2		Integrase	0.51 µM
Nc1nc2c(ncn2[C@H]2CO[C@@H](COP(=O)(O)OP(=O)(O)OP(=O)(O)O)O2)c(=O)[nH]1	RT-K65R K103N Q151M	radiometric	HIV	Ki			Reverse transcriptase	0.221 µM
CC(C)[C@H](NC(=O)[C@@H]1CCCN1C(=O)[C@@H](O)[C@H](Cc1ccccc1)NC(=O)OC(C)(C)C)C(=O)OC1CCCCC1			HIV-1	IC50			Protease	>1000 µM
COC(=O)c1ccc(-c2ccc(NC(=O)CSc3nnnn3-c3ccc(C(C)(C)C)cc3Cl)c(Cl)c2)cc1		PicoGreen / fluorescence	HIV-1	IC50	WT		Reverse transcriptase	<1 µM
Nc1nc2c(ncn2[C@H]2CC[C@@H](COP(=O)(O)OP(=O)(O)OP(=O)(O)OP(=O)(O)OC[C@H]3O[C@@H](n4cnc5c(N)ncnc54)[C@H](O)[C@@H]3O)O2)c(=O)[nH]1	RT-M41L T215Y	nucleotide incorporation / radiometric	HIV	IC50			Reverse transcriptase	1.95 µM
CC(C)(C#Cc1ccc(NC(=O)CSc2nnnn2-c2ccc(C3CC3)cc2Cl)c(Cl)c1)NC(=O)CN=c1ccn(O)cc1	RT-K103 Y181C	PicoGreen / fluorescence	HIV-1	IC50			Reverse transcriptase	<1 µM
CC(=O)c1ccc(O)c2nc(/C=C/c3cc(O)c(O)c(Cl)c3)ccc12		3′ processing / gel	HIV	IC50	HXB2		Integrase	0.53 µM
CN(O)C(=O)COC(C)(C)C#Cc1ccc(NC(=O)CSc2nnnn2-c2ccc(C(C)(C)C)cc2Cl)c(Cl)c1	RT-K103 Y181C	PicoGreen / fluorescence	HIV-1	IC50			Reverse transcriptase	<1 µM
CC(C)[C@H](N)C(=O)N[C@H](C(=O)N[C@@H](Cc1ccccc1)[C@H](O)C(=O)N(CC(=O)N[C@H](C(=O)N[C@H](C(N)=O)C(C)C)C(C)C)Cc1ccccc1)C(C)C			HIV-1	inhibition		1000 µM	Protease	69.6%
CC(C)(C)c1cc(Cl)c(-n2nnnc2SCC(=O)Nc2ccc(-c3ccc(OCC(=O)O)cc3)cc2Cl)c(Cl)c1		PicoGreen / fluorescence	HIV-1	IC50	WT		Reverse transcriptase	<1 µM
COC(=O)N(C)C1CN(C)CCn2c1nc(C(=O)NCc1ccc(F)cc1)c(O)c2=O		ELISA	HIV-1	IC50			Integrase	<10 µM
CC(C)(C)c1ccc(-n2nnnc2SCC(=O)Nc2ccc(C(=O)NCCc3ccc(O)cc3)cc2Cl)c(Cl)c1		PicoGreen / fluorescence	HIV-1	IC50	WT		Reverse transcriptase	<1 µM
Cn1cc2c(c(O)c1=O)C(=O)N(Cc1ccc(Cl)c(Cl)c1)CC2		ELISA	HIV-1	IC50			Integrase	<0.01 µM
C/C(=C\c1ccc(NC(=O)CSc2nnnn2-c2ccc(C3CC3)cc2Cl)c(Cl)c1)C(=O)O	RT-K103 Y181C	PicoGreen / fluorescence	HIV-1	IC50			Reverse transcriptase	<1 µM
COc1ccnc2[nH]cc(C(=O)C(=O)N3CCN(C(=O)c4ccccc4)C[C@H]3C)c12	GP120-M343I	ELISA	HIV-1	fold resistance	LAI		gp120	28
CC(C)(C)c1ccc(-n2nnnc2SCC(=O)Nc2ccc(OCC(=O)Nc3nc(C(=O)O)cs3)cc2Cl)c(Cl)c1	RT-K103 Y181C	PicoGreen / fluorescence	HIV-1	IC50			Reverse transcriptase	<1 µM
CN1CCn2c(nc(C(=O)NCc3ccc(F)c(Cl)c3)c(O)c2=O)C(N(C)C(=O)C(=O)N(C)C)C1		ELISA	HIV-1	IC50			Integrase	<10 µM
CC(C)(C#Cc1ccc(NC(=O)CSc2nnnn2-c2ccc(C3CC3)cc2Cl)c(Cl)c1)OCCNC1CC1		PicoGreen / fluorescence	HIV-1	IC50	WT		Reverse transcriptase	<1 µM
Cc1cn([C@H]2CC[C@@H](COP(=O)(O)OP(=O)(O)OP(=O)(O)O)O2)c(=O)[nH]c1=O	RT-M41L T215Y	nucleotide incorporation / radiometric	HIV	fold resistance			Reverse transcriptase	1.09
CC(C)(C)c1ccc(-n2nnnc2SCC(=O)Nc2ccc(-c3ccc(OCCN4CCOCC4)cc3)cc2Cl)c(Cl)c1		PicoGreen / fluorescence	HIV-1	IC50	WT		Reverse transcriptase	<1 µM
Nc1ncnc2c1ncn2[C@H]1CC[C@@H](COP(=O)(O)OP(=O)(O)OP(=O)(O)O)O1	RT-T215Y		HIV	Ki			Reverse transcriptase	5.2 µM

The first 4 rows once more:

smiles	changes	read by	organism	endpoint	strain or isolate	tested at	target	result
O=C(CSc1nnnn1-c1ccc(C2CC2)cc1Cl)Nc1ccc(C(=O)NCCc2cc[n+]([O-])cc2)cc1Cl	RT-K103 Y181C	PicoGreen / fluorescence	HIV-1	IC50			Reverse transcriptase	<1 µM
O=C1c2c(O)c(=O)c(-c3nccs3)cn2CCN1Cc1ccc(F)c(F)c1		ELISA	HIV-1	IC50			Integrase	0.01–0.1 µM
CS(=O)(=O)N1CCc2nc(C(=O)NCc3ccc(F)cc3)c(O)c(=O)n2CC1		ELISA	HIV-1	IC50			Integrase	<10 µM
CC(C)(C#Cc1ccc(NC(=O)CSc2nnnn2-c2ccc(C(C)(C)C)cc2Cl)c(Cl)c1)OCC(=O)NNC(N)=O	RT-K103 Y181C	PicoGreen / fluorescence	HIV-1	IC50			Reverse transcriptase	<1 µM

Percent inhibition refers to the dose given; in toxicity tests it is the harm to the cells. ICn: concentration for n% inhibition. Blank or dashed fields: not listed here. Neighbouring rows are from separate reports. Fold resistance has wild type as its base.